# In ChEMBL document CHEMBL2439951, “Discovery of N-(benzo[1,2,3]triazol-1-yl)-N-(benzyl)acetamido)phenyl) carboxamides as severe acute respiratory syndrome coronavirus (SARS-CoV) 3CLpro inhibitors: identification of ML300 and noncovalent nanomolar inhibitors with an induced-fit binding” (Bioorg Med Chem Lett, 2013):
# Molecular target: Replicase polyprotein 1a (Severe acute respiratory syndrome-related coronavirus, UniProt P0C6U8)
# Experiment: Inhibition of SARS coronavirus 3CLpro
row,SMILES,IC50 [µM]
1,COc1ncc(-c2ccc(N(Cc3ccsc3)C(=O)Cn3nnc4ccccc43)cc2)cn1,12.5
2,CC(C)COC(=O)Nc1ccc(N(Cc2ccsc2)C(=O)Cn2nnc3ccccc32)cc1,10.3
